# Potato spindle tuber viroid, loop 15: variant abundance in plants

Data from the supplement of Wu et al. 2024, doi:10.1371/journal.ppat.1012142.

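Three N. benthamiana plants were inoculated with the whole mutant pool. Progeny were sequenced from the inoculated region (day 5), the margin of the inoculated leaf (day 10) and systemic leaves (day 12).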

Region: loop 15 of PSTVd (intermediate strain), upper and lower strand joined, each 5' to 3', the first 7 letters being the upper strand, closing pairs included. Wild type: GGAAACCGCUACUAC. Varied positions (N): GGAAACCGNNNNNNC.

Values are reads per thousand in the sample; higher means more abundant, 0 means not found. Each site shows the three plants. "Pool" is the share in the plasmid pool used as inoculum, on the same scale. The inoculated region was read from the minus strand, the other sites from the plus strand. The authors trace changes outside the varied positions to PCR and sequencing errors or to mutation in the plant; presence does not show that a variant is infectious alone.

GGAAACCGAAGCCAC (pool 0.256) read inoculated region 0.0983 / 0.0161 / 0.0952; leaf margin 0.0162 / 0 / 0; systemic leaves 0.0322 / 0 / 0.
GGAAACCGAAGCUUC (pool 0.208) read inoculated region 0.0819 / 0.112 / 0.114; leaf margin 0.0162 / 0 / 0.0401; systemic leaves 0 / 0 / 0.0228.
GGAAACCGACCACCC (pool 0.208) read inoculated region 0.115 / 0.0643 / 0.114; leaf margin 0.0162 / 0 / 0.0200; systemic leaves 0 / 0 / 0.
GGAAACCGACCCUGC (pool 0.192) read inoculated region 0.164 / 0.129 / 0.0571; leaf margin 0 / 0 / 0.0200; systemic leaves 0 / 0 / 0.
GGAAACCGACGGGUC (pool 0.256) read inoculated region 0.557 / 0.466 / 0.305; leaf margin 0 / 0 / 0.0401; systemic leaves 0.0161 / 0 / 0.
GGAAACCGACUAGAC (pool 0.256) read inoculated region 0.0819 / 0.112 / 0.152; leaf margin 0 / 0 / 0; systemic leaves 0 / 0 / 0.
GGAAACCGAGAUCAC (pool 0.224) read inoculated region 0.229 / 0.257 / 0.381; leaf margin 0.0647 / 0.111 / 0.160; systemic leaves 0 / 0 / 0.
GGAAACCGAGGCGAC (pool 0.224) read inoculated region 0.0983 / 0.0803 / 0.0571; leaf margin 0 / 0 / 0; systemic leaves 0 / 0 / 0.
GGAAACCGAGUACCC (pool 0.192) read inoculated region 0.180 / 0.145 / 0.190; leaf margin 0 / 0.0223 / 0; systemic leaves 0.0161 / 0 / 0.
GGAAACCGAGUAUGC (pool 0.192) read inoculated region 0.0491 / 0.0964 / 0.0952; leaf margin 0.0162 / 0.0223 / 0.0200; systemic leaves 0 / 0 / 0.
GGAAACCGAGUGUCC (pool 0.112) read inoculated region 0.0491 / 0.112 / 0.0762; leaf margin 0 / 0 / 0.0801; systemic leaves 0 / 0 / 0.
GGAAACCGAUACCUC (pool 0.224) read inoculated region 0.328 / 0.386 / 0.381; leaf margin 0.0970 / 0.111 / 0.200; systemic leaves 0.0483 / 0.0605 / 0.0228.
GGAAACCGAUGAGUC (pool 0.256) read inoculated region 0.0983 / 0.0482 / 0.114; leaf margin 0 / 0 / 0; systemic leaves 0 / 0 / 0.
GGAAACCGCAAAUUC (pool 0.192) read inoculated region 0.278 / 0.161 / 0.324; leaf margin 0.0485 / 0.156 / 0.160; systemic leaves 0.0322 / 0.0454 / 0.0684.
GGAAACCGCAACCCC (pool 0.112) read inoculated region 0.131 / 0.112 / 0.133; leaf margin 0 / 0 / 0.0200; systemic leaves 0 / 0 / 0.
GGAAACCGCAACCUC (pool 0.304) read inoculated region 0.115 / 0.0964 / 0.0762; leaf margin 0 / 0 / 0; systemic leaves 0.0161 / 0 / 0.
GGAAACCGCCCCACC (pool 0.240) read inoculated region 0.147 / 0.0643 / 0.133; leaf margin 0 / 0.0445 / 0; systemic leaves 0 / 0 / 0.
GGAAACCGCGCAGAC (pool 0.192) read inoculated region 0.0819 / 0.0964 / 0.0381; leaf margin 0 / 0.0223 / 0.0200; systemic leaves 0 / 0 / 0.
GGAAACCGCGGAAAC (pool 0.256) read inoculated region 0.0328 / 0.0803 / 0.0952; leaf margin 0 / 0 / 0; systemic leaves 0 / 0 / 0.
GGAAACCGCUACGGC (pool 0.224) read inoculated region 0.0819 / 0.225 / 0.0571; leaf margin 0 / 0 / 0.0200; systemic leaves 0 / 0 / 0.
GGAAACCGGCAGAUC (pool 0.208) read inoculated region 0.0819 / 0.112 / 0.152; leaf margin 0 / 0 / 0.0200; systemic leaves 0 / 0 / 0.
GGAAACCGGCCUACC (pool 0.224) read inoculated region 0.0983 / 0.209 / 0.0571; leaf margin 0 / 0 / 0; systemic leaves 0.0161 / 0 / 0.
GGAAACCGGCGCUGC (pool 0.128) read inoculated region 0.295 / 0.145 / 0.0952; leaf margin 0 / 0.0223 / 0.0401; systemic leaves 0 / 0.0151 / 0.
GGAAACCGGCUAGCC (pool 0.208) read inoculated region 0.115 / 0.0964 / 0.171; leaf margin 0 / 0 / 0.0200; systemic leaves 0 / 0 / 0.
GGAAACCGGGAAAUC (pool 0.176) read inoculated region 0.147 / 0.0964 / 0.114; leaf margin 0 / 0.0223 / 0; systemic leaves 0 / 0 / 0.
GGAAACCGGUAUGUC (pool 0.272) read inoculated region 0.0819 / 0.0643 / 0.0571; leaf margin 0 / 0 / 0; systemic leaves 0 / 0 / 0.
GGAAACCGGUGUAAC (pool 0.224) read inoculated region 0.0328 / 0.0321 / 0.0571; leaf margin 0 / 0 / 0.0401; systemic leaves 0 / 0 / 0.
GGAAACCGUAACAUC (pool 0.192) read inoculated region 0.0819 / 0.0482 / 0.152; leaf margin 0.0162 / 0.0445 / 0; systemic leaves 0 / 0 / 0.0228.
GGAAACCGUAUUUUC (pool 0.288) read inoculated region 0.0491 / 0.0643 / 0.0762; leaf margin 0 / 0 / 0.0200; systemic leaves 0 / 0 / 0.
GGAAACCGUCCUUGC (pool 0.208) read inoculated region 0.0983 / 0.0964 / 0.171; leaf margin 0 / 0.0223 / 0.0200; systemic leaves 0 / 0 / 0.
GGAAACCGUCUGAAC (pool 0.304) read inoculated region 0.213 / 0.225 / 0.152; leaf margin 0.0162 / 0.0445 / 0; systemic leaves 0.0161 / 0 / 0.
GGAAACCGUCUUGCC (pool 0.208) read inoculated region 0.115 / 0.0803 / 0.133; leaf margin 0 / 0 / 0.0200; systemic leaves 0 / 0 / 0.
GGAAACCGUGCCCAC (pool 0.128) read inoculated region 0.0983 / 0.161 / 0.114; leaf margin 0.0323 / 0.0223 / 0.0200; systemic leaves 0 / 0 / 0.
GGAAACCGUGGCUCC (pool 0.144) read inoculated region 0.0983 / 0.0482 / 0.0571; leaf margin 0.0162 / 0.0223 / 0.0401; systemic leaves 0 / 0 / 0.
GGAAACCGUGGUAUC (pool 0.192) read inoculated region 0.131 / 0.145 / 0.0381; leaf margin 0 / 0.0445 / 0; systemic leaves 0 / 0 / 0.
GGAAACCGUUCUAGC (pool 0.176) read inoculated region 0.115 / 0.112 / 0.0571; leaf margin 0.0162 / 0.0223 / 0.0200; systemic leaves 0.0161 / 0 / 0.
GGAAACCGUUCUGCC (pool 0.224) read inoculated region 0.0328 / 0.0321 / 0.133; leaf margin 0 / 0.0223 / 0; systemic leaves 0 / 0 / 0.
GGAAACCGUUUUUUC (pool 0.192) read inoculated region 0.442 / 0.337 / 0.362; leaf margin 0.0485 / 0.111 / 0.200; systemic leaves 0.0644 / 0 / 0.

4 of these entries, quoted again:

sequence,pool,inoculated region,leaf margin,systemic leaves
GGAAACCGACCCUGC,0.192,0.164 / 0.129 / 0.0571,0 / 0 / 0.0200,0 / 0 / 0
GGAAACCGACCACCC,0.208,0.115 / 0.0643 / 0.114,0.0162 / 0 / 0.0200,0 / 0 / 0
GGAAACCGUUCUGCC,0.224,0.0328 / 0.0321 / 0.133,0 / 0.0223 / 0,0 / 0 / 0
GGAAACCGGUGUAAC,0.224,0.0328 / 0.0321 / 0.0571,0 / 0 / 0.0401,0 / 0 / 0

Samples held 43,870 to 66,106 reads, so the smallest values rest on one or two reads. For reference, wild type rose from 33.9 per thousand in the pool to 202, 200, 159 (inoculated region), 724, 746, 710 (leaf margin) and 856, 883, 880 (systemic leaves).